A mixed list of measured activities; the numbers were collected in NIAID ChemDB.

Common to all: target-level tests; agent: HIV; protein: Reverse transcriptase; measure: IC50

Lines come from different laboratories, so protocols vary.

SMILES	mutations	method	result
COc1ccc2nc3cc(Cl)ccc3c(NCCCCN)c2c1		nucleotide incorporation / radiometric	10.5 µg/mL
Nc1ncnc2c1ncn2[C@H]1CC[C@@H](COP(=O)(O)OP(=O)(O)OP(=O)(O)OP(=O)(O)OC[C@@H]2CC[C@H](n3cnc4c(N)ncnc43)O2)O1	RT-K65R	nucleotide incorporation / radiometric	>36 µM
Cc1ccnc2c1NC(=O)c1cc(N)cnc1N2C1CC1	K103N	RT activity	97 µM
S=C(CCc1ccccc1)Nc1ccc(Cl)cn1	Y181I	radiometric	>100 µM
Cc1cn([C@@]23CC2[C@H](COP(=O)(O)OP(=O)(O)OP(=O)(O)O)[C@@H](N=[N+]=[N-])C3)c(=O)[nH]c1=O			>1 µM
Fc1cccc(F)c1CC(=S)Nc1ccc(Cl)cn1	Y181I	radiometric	>100 µM
CCc1c(Cc2cccc3ccccc23)nc(SCC(=O)c2cccs2)[nH]c1=O		ELISA	9.67 µM
COc1ccc2nc3cc(Cl)ccc3c(NCCNCCO)c2c1		nucleotide incorporation / radiometric	15 µg/mL
Nc1ccn([C@H]2CC[C@@H](COP(=O)(O)OP(=O)(O)OP(=O)(O)O)O2)c(=O)n1	RT-F116Y Q151M	nucleotide incorporation / radiometric	5 µM
CCN1c2ncc(CSc3cccc(OC)c3)cc2C(=O)N(C)c2c(C)cc(Cl)nc21	K103N	RT activity	4.59 µM
CCc1c(Cc2ccccc2)nc(SCC(=O)c2ccco2)[nH]c1=O		ELISA	0.45 µM
COc1ccc2nc3cc(Cl)ccc3c(NCCCN=CN)c2c1		nucleotide incorporation / radiometric	4.9 µg/mL
CC(C)=CCN1Cc2cccc3[nH]c(=S)n(c23)C[C@@H]1C	RT-K263V	nucleotide incorporation	0.2 µM
Nc1ncnc2c1ncn2[C@H]1CC[C@@H](COP(=O)(O)OP(=O)(O)OP(=O)(O)O)O1	RT-F116Y Q151M	nucleotide incorporation / radiometric	19 µM
Cc1cc(Cc2ccc(Cl)c(Oc3cc(Cl)cc(C#N)c3)c2F)n[nH]c1=O	G190A	nucleotide incorporation	0.001 µM
Cc1cc(Cc2ccc(Cl)c(Oc3cc(F)cc(C#N)c3)c2F)n[nH]c1=O	G190A		0.001 µM
CCc1c(Cc2ccccc2)nc(SCC(=O)c2cccs2)[nH]c1=O		ELISA	17.8 µM
Nc1nc2c(ncn2[C@H]2CC[C@@H](COP(=O)(O)OP(=O)(O)OP(=O)(O)OP(=O)(O)OC[C@H]3O[C@@H](n4cnc5c(N)ncnc54)[C@H](O)[C@@H]3O)O2)c(=O)[nH]1	RT-D67N K70R T215Y K219Q	nucleotide incorporation / radiometric	0.74 µM
Nc1ncnc2c1ncn2[C@H]1CC[C@@H](COP(=O)(O)OP(=O)(O)OP(=O)(O)O)O1		radiometric	0.15 µM
S=C(Cc1ccccn1)Nc1ccc(Cl)cc1	K103N	radiometric	>100 µM
COc1ccc2nc3cc(Cl)ccc3c(NCCCCCN)c2c1		nucleotide incorporation / radiometric	13 µg/mL
Cc1c(Cc2cccc3ccccc23)nc(SCCc2ccccc2)[nH]c1=O		ELISA	517 µM
CCN1c2nc(Cl)ccc2NC(=O)c2cc(CSc3cccc(OC)c3)cnc21	K103N	RT activity	19.4 µM
S=C(CCCc1ccccc1)Nc1ccc(Cl)cn1	L100I	radiometric	>100 µM
Cc1cn([C@H]2CC[C@@H](COP(=O)(O)OP(=O)(O)OP(=O)(O)OP(=O)(O)OC[C@@H]3CC[C@H](n4cc(C)c(=O)[nH]c4=O)O3)O2)c(=O)[nH]c1=O	RT-K65R	nucleotide incorporation / radiometric	42 µM
Cc1ccnc2c1NC(=O)c1cc(N)c[nH+]c1N2C1CC1	Y181C	RT activity	126 µM
COc1ccc2nc3cc(Cl)ccc3c(NCCNCCNCCN)c2c1		nucleotide incorporation / radiometric	11 µg/mL
CCN1c2ncc(CSc3ccccc3)cc2C(=O)Nc2c(C)cc(Cl)nc21	Y181C	RT activity	0.269 µM
CCN(CC)CCCC(C)Nc1c2ccc(Cl)cc2nc2ccc(OC)cc12		nucleotide incorporation / radiometric	38 µg/mL
Nc1ccn([C@H]2CC[C@@H](COP(=O)(O)OP(=O)(O)OP(=O)(O)O)O2)c(=O)n1	RT-D67N K70R T215Y K219Q	nucleotide incorporation / radiometric	0.1 µM

A second listing of 4 rows from above:

SMILES,mutations,method,result
CCN(CC)CCCC(C)Nc1c2ccc(Cl)cc2nc2ccc(OC)cc12,,nucleotide incorporation / radiometric,38 µg/mL
Cc1cc(Cc2ccc(Cl)c(Oc3cc(Cl)cc(C#N)c3)c2F)n[nH]c1=O,G190A,nucleotide incorporation,0.001 µM
CCN1c2nc(Cl)ccc2NC(=O)c2cc(CSc3cccc(OC)c3)cnc21,K103N,RT activity,19.4 µM
COc1ccc2nc3cc(Cl)ccc3c(NCCCN=CN)c2c1,,nucleotide incorporation / radiometric,4.9 µg/mL

ICn: concentration for n% inhibition. An empty or dashed field is not shown.